{
  "sequences": {"note": "By UniProt entry, the sequences of proteins in these tests, tags left out. Residues count along the entry.", "UniProt P27958, 1027-1208 limits assumed": "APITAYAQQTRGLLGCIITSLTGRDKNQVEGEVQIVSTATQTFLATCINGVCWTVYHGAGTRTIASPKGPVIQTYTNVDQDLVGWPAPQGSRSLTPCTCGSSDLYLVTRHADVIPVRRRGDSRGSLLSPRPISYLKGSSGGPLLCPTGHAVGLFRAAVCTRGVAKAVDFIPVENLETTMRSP"},
  "source": "patent US7388017B2",
  "about": "“Inhibitors of serine proteases, particularly hepatitis C virus NS3 protease” (Vertex Pharmaceuticals Incorporated, priority 1996, dated 2008)",
  "target": "HCV NS3 protease (Hepatitis C virus genotype 1a, UniProt P27958)",
  "test": "Enzyme inhibition of HCV NS3 serine protease (cleavage of peptide substrate / EDVV AbuC-p-nitroanilide, with or without NS4A)",
  "format": "biochemical",
  "details": "Enzyme inhibition data; Ki from rate vs [inhibitor] plots, Morrison tight binding competitive inhibition fit; 30 C, pH 7.8",
  "method": "Cleavage reactions were quenched by the addition of an equal volume of a mixture of 10% TFA:acetonitrile (1:1) and activity was assessed on a reversed phase HPLC column (Rainin C18 Microsorb-MV, […], 4.6×250 mm; 0-50% acetonitrile, 0.1% TFA@ 3.33% min) using a Hewlett Packard 1050 instrument with auto-injection and diode array detection at 210 nm and 280 nm (where appropriate). Peptide elution fragments were collected and identified by mass spectrometry and N-terminal sequence analysis. Fragment identity and concentration was further verified by authentic, synthesized products. Initial rates of cleavage were determined at <20% substrate conversion and catalytic parameters were determined assuming Michaelis-Menten kinetics using the MultiFit program (Day Computing, Cambridge, Mass.).\nSpectrophotometric assays were run in a 96-well microtiter plate at 30 C, using a SpectraMax 250 reader (Molecular Devices, Sunnyvale, Calif.) with kinetic capability. Cleavage of EDVV AbuC-p-nitroanilide (5A-pNA) substrate was performed with or without […] in the same buffer used for HPLC assays at 30 C, and pNA release was monitored at 405 nm. […]\nKinetic constants for the rapid equilibrium ordered bisubstrate reaction were determined from rate vs [4A], [EDVV AbuC-pNA] data by non-linear least squares fitting to equation 1 [Morrison, J. F. Biochim. […]",
  "note": "pKi: −log10 of the molar value. Structures were worked out from names or drawings and are uncertain.",
  "data": [
    {"compound": "CC[C@@H](C=O)NC(=O)[C@@H]1C[C@@H](NC(=O)c2ccc3ccccc3c2)CN1C(=O)C(NC(=O)C(NC(=O)c1cnccn1)C(C)C)C(C)C", "note": "(stereo partly shown)", "values": [
      {"measurement": "pKi", "result": "4.00 to 6.00"}
    ]}
  ]
}
